Laboratory results taken from PMC4847859.
Construct, isoform or probe ends are uncertain for at least one entry.

Key:
[1] = biological target: CdpR (Pseudomonas aeruginosa PAO1) (UniProt Q9I0P9); assay: EMSA; conditions: recombinant protein, probe letters rebuilt from the primers and the genome; for binding result: 0.125-1 uM
[2] = biological target: CdpR (Pseudomonas aeruginosa PAO1) (UniProt Q9I0P9); assay: DNase I footprinting; conditions: CdpR 4.0 uM or 2 uM (Methods); recombinant protein; label: 5' 6-FAM on pqsH-gf strand; probe letters rebuilt from the primers and the genome

| Sequence | binding result [1] | other results |
| --- | --- | --- |
| CCTGGCAGGCATGGAGAGCGCCAGCAGGACGCAGGACAGCAAGAGCGCGGTGAATGCGGAACGTGACATGGCGACCCTCTTCTTGTTTTCCGCCGCTGGGCGGGCTGGGGACGGTGGTCATCGAAAGCGGGCCGGAGCCTGCTTCGCCTGGTTGCCACTGTAGTGCCAGGGTGGTGGAGTCGAGGGGGGCGTAGCGGACAGGAAGGGGGTGAGCGCCGGCCATCCTGCATGGACGGCAAGGCAGGCGGGTAAAAAAAGGCCGCCTGCGTGGGGAGGCACCGGCGGCCAGTCGGTTCGGCAGCGTCGAGCCGGTCTGCAAGGGCTGGCGCAGGTCTCGGCTGCGGCCTGCGCCGACGCTCCCGAGGGCATTCGTAGTGTGCCCGACGCCGGCTGTCAGGGCGCTGACGCCCGCCTGACAATGCCGACAGCGGACACCGGGCGCATGCTTATTTCACCAGCGCCCTCTCGCCTTCCTCGCGGACCCAGAACAGGGTGGCGCCGGCGACGGCGGCGGGCATCATGACCAGGTTGACCAGCGGGATCAGCAGCGCCAGGTAG (double strand) [cerN promoter] | binds | – |
| GTGGATACCTGGGCGAGTTCGTAGCGCGCATCGGCGGCATTGTTGTGCATGGGCGAAATCCTGAGCCGGTCTCGGCTTCGTTCTTGTTCTGGCGGTGGATCGCGACATGGGATGAGCGTCCCATCATATAGCGTTCCGCACAGATGTAACAAAGCATTGCGCAGTGTCCGCAAATCCCCCCCTCGCTGACCGTCAATGCCCTGCCTCGGCCTGCCGTTAGGGCTTATTCCTATGCCGTGCCCCGAGCCACGCCAACAATAATAAGAGCCCGCCCATGAACCCGATCCGCCCCCACAGGCCCCTGCGCCTGGCCGCCTGCGTCACCCTCGCCGTCAGCTGCTGCACCCACGCCAGCGAAGGCGGCGTGGACAACATTGGTCCAGGAACCGACGGTTTCTTCACCCTGCCACTGGACGTCGACAACCTCCCCGACCACATGTTCGCCTTCAACGTCTACTACAACCACTACGAAGCCAGGAAGCTGAACATCAGCTCCTTCGGCGGCAAGGTGTCCGACGTGAAGATCAGCTCGGAT (double strand) [sphR promoter] | binds | – |
| TAAGGGGTTGACAGGAGCGGGGTCTGCGTATAGCCGCGCCTCCGCGACGCCGTGCCGATCGGTCGTGCATGCTTGCCGTGGCCCGGCTGAGCACTGCCGTCCCGGCCACTCTCGCCGGGGTGGCTGCGCCTGGATGATCGTCGTGGGCGGTGGTGGCGCGGGCCGGTCGCCCTGAGCTTCAGGCGCCATCGCCGCTTGCCGGCGCTCGGGAGGCCGCTGGCCAAGGAAAACCGTAGCGCCGCGGCGGGCGGCGGCTAGCGGGGATTTCCGGCCACGCGTGCCGTGCCCGGGCCACGCTTGCCTTCCCGGCGCGCCGGACTCCCGGTGGCCTGGAGGACAGGAAAAGCGAGCGGCGAGGTGTCGGCGAGCAGGGTCAACTCGATCTTCTGATAGGGTCGGTGGGCTGTCCGGGGCGGCTAGGATGGACATTTTCATCGTCTCGGGCAGGCCTGTCGCGACCGCGCGAAGTCGCGACGGATGCCGCTGCTAAGGAGCAACGGATGACCGTTCTTATCCAGGGGGCCGGGATCGCCGGCCTGGCGCTGGCGCGCGAATTCACCAAGGCAGGCATCGACTGGCTGCTGGTC (double strand) [pqsH promoter footprint probe] | – | binding result [2]: binds |
| TAAGGGGTTGACAGGAGCGGGGTCTGCGTATAGCCGCGCCTCCGCGACGCCGTGCCGATCGGTCGTGCATGCTTGCCGTGGCCCGGCTGAGCACTGCCGTCCCGGCCACTCTCGCCGGGGTGGCTGCGCCTGGATGATCGTCGTGGGCGGTGGTGGCGCGGGCCGGTCGCCCTGAGCTTCAGGCGCCATCGCCGCTTGCCGGCGCTCGGGAGGCCGCTGGCCAAGGAAAACCGTAGCGCCGCGGCGGGCGGCGGCTAGCGGGGATTTCCGGCCACGCGTGCCGTGCCCGGGCCACGCTTGCCTTCCCGGCGCGCCGGACTCCCGGTGGCCTGGAGGACAGGAAAAGCGAGCGGCGAGGTGTCGGCGAGCAGGGTCAACTCGATCTTCTGATAGGGTCGGTGGGCTGTCCGGGGCGGCTAGGATGGACATTTTCATCGTCTCGGGCAGGCCTGTCGCGACCGCGCGAAGTCGCGACGGATGCCGCTGCTAAGGAGCAACGGATGACCGTTCTTATCCAGGGGGCCGGGATCGCCGGCCTGGCGCTGGCGCGCGAATTCACCAAGGCAGGCATCGACTGGCTGCTGGTC (double strand) [pqsH-p (pqsH-cdpR intergenic region)] | – | half-maximal binding ([1]; about 50% of probe shifted, DNA 40 nM): 500 nM |
